Laboratory results: patent US6423707B1, “Nitroimidazole ester analogues and therapeutic applications” (California Pacific Medical Center, priority 2000, dated 2002)

Tested on: metronidazole resistant H. pylori isolate (ATCC strain 43579)
Assay: Helicobacter pylori microbicidal assay (Example 12)
Format: cell-based
Settings: for MBC (Minimal Bactericidal Concentration): lowest concentration that killed 100% of the H. pylori working solution, ATCC strain 43579, metronidazole-resistant, 72 hours; for Bactericidal Activity Index: relative to positive control (=1), ATCC strain 43579

Compound	MBC (Minimal Bactericidal Concentration) [µg/mL]	Bactericidal Activity Index
Cc1ncc([N+](=O)[O-])n1CCOC(=O)c1cc([N+](=O)[O-])c(Cl)c([N+](=O)[O-])c1	63 (≈ 158 µM)	1.4
Cc1ncc([N+](=O)[O-])n1CCOC(=O)[C@H](C)ON=C1c2cc([N+](=O)[O-])cc([N+](=O)[O-])c2-c2c1cc([N+](=O)[O-])cc2[N+](=O)[O-]	17 (≈ 28.3 µM)	5.2

Values after ≈ are worked out from the molar mass of the structure shown.
